Values from PubChem BioAssay AID504761 (Drosophila RNAi Screening Center, 2011).
The screen tested about 22,000 reagents; shown is an unselected part of those that have a named target and a result. In the full data, 116 (0.52%) are marked active. 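Calls depend on retest data that are not deposited; infection was ranked per plate without normalising between plates; the unit of the infection score is not given.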 Raw values vary from plate to plate and are shown uncorrected. Entries without a mark were called inactive. Reagents against one gene are numbered here. A plus sign joins genes that one reagent is predicted to hit. Reagent sequences are not shown. Not given: the amount of reagent, the time to read-out.

- Screen: 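Genome-wide fly cell screen for genes dengue virus requires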 (primary screen)
- System: D.Mel-2 cells from Drosophila
- Knock-down reagent: long dsRNA against Drosophila genes
- Conditions: infection with dengue virus type 2; dose and infection time not stated
- Detection: 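Per well on two replicate plates, imaging gave the percent of cells positive for viral envelope protein, ranked by infection, and a nuclear count of cells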
- Scale: infection score: higher = more virus-infected cells; cell count: higher = more cells in the well
- Active means: 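Very low infection ranking in both replicate wells (chance probability at most 0.065), then a retest showing infection dropped 1.5-fold or more at p below 0.05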
- Meaning of the calls: active = confirmed: knock-down lowers infection; inactive = not picked or not confirmed

target gene | reagent | infection score, replicate 1 | infection score, replicate 2 | cell count, replicate 1 | cell count, replicate 2
CG43861 + CG12508 (retired record) | 1 | 1.06 | 2.13 | 662 | 6724
CG32457 | 1 | 21.2 | 5.25 | 3453 | 6040
Corp (Companion of reaper) | 1 | 3.54 | 1.63 | 6179 | 6439
Corp (Companion of reaper) | 2 | 1.87 | 11 | 5978 | 6180
CG42795 | 1 | 2.16 | 1.24 | 5830 | 5888
CG42795 | 2 | 13.6 | 2.93 | 6829 | 7097
CG42795 | 3 | 4.15 | 1.8 | 7091 | 6720
Ir7e (Ionotropic receptor 7e) | 1 | 1.79 | 6.35 | 6763 | 6221
mAcon1 (Mitochondrial aconitase 1) | 1 | 1.41 | 6.47 | 853 | 2580
mAcon1 (Mitochondrial aconitase 1) | 2 | 14.4 | 16.9 | 5872 | 5470
CG17327 | 1 | 4.17 | 8.16 | 6286 | 6849
Cyp1 (Cyclophilin 1) | 1 | 32.5 | 2.05 | 5566 | 7121
Cyp1 (Cyclophilin 1) | 2 | 31.1 | 5.74 | 6190 | 854
Sec15 (Secretory 15) | 1 | 4.76 | 13.4 | 1785 | 5084
Sec15 (Secretory 15) | 2 | 14.7 | 5.58 | 3296 | 1290
Zcchc7 (Zinc finger CCHC-type containing 7) | 1 | 13.5 | 8.62 | 4579 | 6274
Zcchc7 (Zinc finger CCHC-type containing 7) | 2 | 16.8 | 10.4 | 6390 | 5021
CG16787 | 1 | 11.4 | 15.9 | 3057 | 5126
moon (moonshiner) | 1 | 1.9 | 3.7 | 6526 | 6833
ClC-a (Chloride channel-a) | 1 | 0.82 | 2.05 | 6581 | 6540
ClC-a (Chloride channel-a) | 2 | 0.81 | 1.76 | 6308 | 6578
ClC-a (Chloride channel-a) | 3 | 16 | 19.9 | 5989 | 5802
TwdlN (TweedleN) | 1 | 1.31 | 3.69 | 6575 | 6524
ZnT33D (Zinc transporter 33D) | 1 | 0.86 (active) | 0.56 | 6495 | 6574
Ercc1 | 1 | 9.72 | 10.3 | 6182 | 6406
Alp7 (Alkaline phosphatase 7) | 1 | 14.1 | 19.6 | 6524 | 5832
Alp7 (Alkaline phosphatase 7) | 2 | 12.7 | 8.71 | 6025 | 6738
Shab (Shaker cognate b) | 1 | 2.62 | 2.71 | 6269 | 5532
Shab (Shaker cognate b) | 2 | 3.26 | 1.02 | 6014 | 6491
Shab (Shaker cognate b) | 3 | 9.07 | 8.53 | 6249 | 3894
Shab (Shaker cognate b) | 4 | 11.8 | 9.03 | 5172 | 5547
CG14147 | 1 | 3.17 | 4.03 | 5808 | 6151
Mos (Mos oncogene) | 1 | 4 | 8.21 | 7023 | 6647
CG5823 | 1 | 2.37 | 4.74 | 6467 | 6790
JYalpha (retired record) + JYalpha | 1 | 4.77 | 5.02 | 5997 | 6398
alpha-PheRS (Phenylalanyl-tRNA synthetase, alpha-subunit) | 1 | 8.1 | 3.22 | 5688 | 5805
alpha-PheRS (Phenylalanyl-tRNA synthetase, alpha-subunit) | 2 | 4.28 | 13.7 | 5533 | 5006
CG13532 | 1 | 5.08 | 4.59 | 6382 | 6729
CG12848 | 1 | 19.8 | 16.9 | 5981 | 6526
cue (cueball) | 1 | 13.6 | 11.6 | 5303 | 1584
Diap2 (Death-associated inhibitor of apoptosis 2) | 1 | 4.4 | 29.4 | 932 | 4764
Diap2 (Death-associated inhibitor of apoptosis 2) | 2 | 2.36 | 4.01 | 5667 | 5590
lin-52 | 1 | 3.15 | 2.96 | 5785 | 5887
CG2852 | 1 | 27.1 | 13.9 | 5804 | 5071
CG2852 | 2 | 5.44 | 3.05 | 6378 | 6104
kirre (kin of irre) | 1 | 11.5 | 17.5 | 5521 | 2582
kirre (kin of irre) | 2 | 1.86 | 1.67 | 6006 | 6281
RpL37-2 (Ribosomal protein L37-2) | 1 | 13.5 | 19.1 | 6383 | 5389
sicily (severe impairment of CI with lengthened youth) | 1 | 21.3 | 15.3 | 5457 | 5778
CG14377 + CG14374 | 1 | 1.33 | 1.16 | 6462 | 6388
CG4238 | 1 | 16.4 | 7.66 | 6377 | 6540
jdp | 1 | 3.5 | 12.4 | 5636 | 6464
jdp | 2 | – | 12.3 | 32 | 1724
SdhA (Succinate dehydrogenase, subunit A (flavoprotein)) | 1 | 10.6 | 8.4 | 6472 | 6382
Tbc1d8-9 (TBC1 domain family member 8/9) | 1 | 3.88 | 12.2 | 5874 | 6699
Nepl19 (Neprilysin-like 19) | 1 | 4.12 | 3.5 | 6405 | 6656
SmE (Small ribonucleoprotein particle protein SmE) | 1 | 18.3 | 3.09 | 3531 | 3921
Pmvk (Phosphomevalonate kinase) | 1 | 15.1 | 16.8 | 1963 | 5241

Not a retest: entries from further up.
target gene | reagent | infection score, replicate 1 | infection score, replicate 2 | cell count, replicate 1 | cell count, replicate 2
Shab (Shaker cognate b) | 3 | 9.07 | 8.53 | 6249 | 3894
Shab (Shaker cognate b) | 4 | 11.8 | 9.03 | 5172 | 5547
CG14147 | 1 | 3.17 | 4.03 | 5808 | 6151
Mos (Mos oncogene) | 1 | 4 | 8.21 | 7023 | 6647
CG5823 | 1 | 2.37 | 4.74 | 6467 | 6790
